Reference: PMC7099625, “Exploration of thiaheterocyclic hHDAC6 inhibitors as potential antiplasmodial agents” (Future Medicinal Chemistry, 2017)

Test system: Chinese Hamster Ovary (CHO) cells
Experiment: MTT in vitro cytotoxicity assay
Type: cell-based
Settings: ratio CHO vs NF54
Description: Test samples were screened for in vitro cytotoxicity against a mammalian cell-line, Chinese Hamster Ovary (CHO), using the 3-(4,5-dimethylthiazol-2-yl)-2,5-diphenyltetrazoliumbromide (MTT)-assay. The MTT-assay is used as a colorimetric assay for cellular growth and survival, and compares well with other available assays. The tetrazolium salt MTT was used to measure all growth and chemosensitivity. The test samples were tested in triplicate on one occasion. The same stock solutions prepared for antiplasmodial evaluation were used for cytotoxicity testing. Test compounds were stored at -20°C until use. Dilutions were prepared on the day of the experiment. Emetine was used as the reference drug in all experiments. The starting concentration was 100 μg/ml, which was serially diluted in complete medium with tenfold dilutions to give six concentrations, the lowest being 0.001 μg/ml. […] The IC50 values were obtained from full dose–response curves, using a nonlinear dose–response curve fitting analysis via GraphPad Prism v.4 software. […]

Row | Structure (SMILES) | SI (selectivity index) = IC50 (CHO)/IC50 (NF54)
1 | O=C(NO)c1ccc(Cn2c3c(c4ccccc42)C[S+]([O-])CC3)cc1 (racemic) [Compound 1j] | >217
2 | O=C(NO)c1ccc(CN2c3cc(C(F)(F)F)ccc3SCC3CCCC32)cc1 (racemic) [Compound 3c] | 40
3 | O=C(NO)c1ccc(CN2c3cc(Cl)ccc3S(=O)(=O)CC3CCCC32)cc1 (racemic) [Compound 3e] | 75
4 | O=C(NO)c1ccc(CN2c3cc(C(F)(F)F)ccc3S(=O)(=O)CC3CCCC32)cc1 (racemic) [Compound 3f] | 65
5 | O=C(NO)c1ccc(Cn2c3c(c4cc(F)ccc42)CSCC3)cc1 [Compound 1c] | 48
6 | O=C(NO)c1cccc(Cn2c3c(c4ccccc42)CSCC3)c1 [Compound 1n] | >199
7 | O=C(NO)c1cccc(Cn2c3c(c4cc(F)ccc42)CSCC3)c1 [Compound 1o] | 36
8 | O=C(NO)c1ccc(NCc2csc3ccccc23)cc1 [Compound 2a] | 8
9 | O=C(NO)c1ccc(NCc2csc3ccc(Br)cc23)cc1 [Compound 2c] | 30
10 | O=C(NO)c1ccc(NCc2csc3cc(Br)ccc23)cc1 [Compound 2g] | 35
11 | O=C(NO)c1ccc(NCc2csc3cc(-c4ccccc4)ccc23)cc1 [Compound 2i] | 9
12 | O=C(NO)c1ccc(CN2c3ccccc3SCC3CCCC32)cc1 (stereo not shown) [Compound 3a] | 65
13 | O=C(NO)c1ccc(CN2c3ccccc3[S+]([O-])CC3CCCC32)cc1 (stereo not shown) [Compound 3g] | 138
